Data as given in PubChem BioAssay AID504761 (Drosophila RNAi Screening Center, 2011).
The deposit covers about 22,000 reagents; below is a random part of those that have a named target and a result. In the full data, 116 (0.52%) are marked active. 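Calls depend on retest data that are not deposited; infection was ranked per plate without normalising between plates; the unit of the infection score is not given.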 Raw values are not corrected between plates. Names joined by + are all predicted targets of the reagent. Not given: the amount of reagent, the time to read-out.

- Screen: 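Fly genes whose silencing reduces dengue virus type 2 infection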 (primary screen)
- Cell system: D.Mel-2 cells from Drosophila
- Reagent: long dsRNA against Drosophila genes
- Conditions: infection with dengue virus type 2; dose and infection time not stated
- Detection: 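Per well on two replicate plates, imaging gave the percent of cells positive for viral envelope protein, ranked by infection, and a nuclear count of cells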
- Reading the numbers: infection score: higher = more virus-infected cells; cell count: higher = more cells in the well
- Rule for the call: 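Very low infection ranking in both replicate wells (chance probability at most 0.065), then a retest showing infection dropped 1.5-fold or more at p below 0.05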
- Calls: active = confirmed: knock-down lowers infection; inactive = not picked or not confirmed

Gene,PubChem SID,"infection score, replicate 1","infection score, replicate 2","cell count, replicate 1","cell count, replicate 2",outcome
CG31782 (retired record) (GeneID 318938),SID104181346,2.33,0.81,6001,6078,inactive
CG31782 (retired record) (GeneID 318938),SID104181348,4.76,3.23,5922,6102,inactive
sqa (GeneID 36002),SID104186485,22.3,21.3,5422,5777,inactive
sqa (GeneID 36002),SID104201328,5.94,6.72,5706,6306,inactive
CG13423 (GeneID 37315),SID104186178,1.64,3.63,6172,6089,inactive
yellow-d (GeneID 37703),SID104184381,2.81,2.58,7268,6757,inactive
yellow-d (GeneID 37703),SID104205477,14.8,36.3,6208,5775,inactive
moody (GeneID 31168),SID104198307,11.6,3.64,5632,6096,inactive
CG31715 (GeneID 318909),SID104201309,7.2,7.48,6233,2793,inactive
fus (GeneID 44095),SID104185361,0.48,2.98,6228,6413,inactive
fus (GeneID 44095),SID104186899,21.3,7.25,5110,6617,inactive
Lkb1 (GeneID 41673),SID104196273,11.5,10.3,5749,5874,inactive
ric8b + ric8a,SID104197896,3.26,5.53,6101,6387,inactive
ple (GeneID 38746),SID104191175,4.41,4.05,5621,5284,inactive
CG3713 (GeneID 50365),SID104198440,12.5,7.93,3881,2508,inactive
dl (GeneID 35047),SID104183313,3.56,1.4,6681,6653,inactive
dl (GeneID 35047),SID104207567,0.23,,437,320,inactive
Osi20 (GeneID 40777),SID104192360,1.85,2.26,6715,6592,inactive
Osi20 (GeneID 40777),SID104207174,34.5,22.1,5907,5360,inactive
CG32388 (GeneID 192611),SID104188653,0.62,1.01,6148,5923,inactive

7 of these entries in another layout.
| Gene | PubChem SID | infection score, replicate 1 | infection score, replicate 2 | cell count, replicate 1 | cell count, replicate 2 | outcome |
| --- | --- | --- | --- | --- | --- | --- |
| ric8b + ric8a | SID104197896 | 3.26 | 5.53 | 6101 | 6387 | inactive |
| ple (GeneID 38746) | SID104191175 | 4.41 | 4.05 | 5621 | 5284 | inactive |
| CG3713 (GeneID 50365) | SID104198440 | 12.5 | 7.93 | 3881 | 2508 | inactive |
| dl (GeneID 35047) | SID104183313 | 3.56 | 1.4 | 6681 | 6653 | inactive |
| dl (GeneID 35047) | SID104207567 | 0.23 | – | 437 | 320 | inactive |
| Osi20 (GeneID 40777) | SID104192360 | 1.85 | 2.26 | 6715 | 6592 | inactive |
| Osi20 (GeneID 40777) | SID104207174 | 34.5 | 22.1 | 5907 | 5360 | inactive |

More results:
Gene,PubChem SID,"infection score, replicate 1","infection score, replicate 2","cell count, replicate 1","cell count, replicate 2",outcome
dnc (GeneID 31309),SID104197551,1.77,1.36,6162,6961,inactive
dnc (GeneID 31309),SID104197703,4.07,2.03,6442,6348,inactive
dnc (GeneID 31309),SID104198556,9.5,0.84,3030,6772,inactive
amos (GeneID 35110),SID104183276,12.3,3.74,2817,5902,inactive
amos (GeneID 35110),SID104203396,2.48,2.42,6049,6523,inactive
CG11905 (GeneID 39895),SID104189655,3.2,7.43,6776,6397,inactive
CG11905 (GeneID 39895),SID104203348,8.86,25.3,6278,5978,inactive
CG13409 (GeneID 42592),SID104194377,1.05,2.44,6380,5904,inactive
Prosalpha3 (GeneID 37378),SID104184436,4.37,5.03,1808,1570,inactive
CG32436 (GeneID 40362),SID104191475,4.67,5.87,6216,6371,inactive
CG32436 (GeneID 40362),SID104191588,15.6,5.62,6464,5802,inactive
CG14607 (GeneID 40869),SID104192343,4.07,5.28,6287,6103,inactive
GABA-B-R3 (GeneID 33248),SID104180353,12.4,5.19,6586,6651,inactive
GABA-B-R3 (GeneID 33248),SID104207948,,,274,431,inactive
Hsp70Aa + Hsp70Bb + Hsp70Ba + 3 more,SID104195172,4.21,10.2,6193,5799,inactive
SIFaR (GeneID 42530),SID104193259,6.18,2.66,6455,5930,inactive
SIFaR (GeneID 42530),SID104194058,5.31,1.2,6272,6024,inactive
Ugt303B3 (GeneID 42774),SID104193991,2.51,8.16,6801,6681,inactive
Ugt303B3 (GeneID 42774),SID104204930,0.88,2.63,5891,5811,inactive
CG14502 (GeneID 37092),SID104186265,10.5,2.46,6725,6491,inactive
CG9040 (GeneID 39546),SID104190845,2.17,4.49,5754,5636,inactive
Adi1 (GeneID 326189),SID104190737,3.25,3.78,5727,6078,inactive
Adi1 (GeneID 326189),SID104201215,2.36,6.41,5645,5524,inactive
crc (GeneID 47767),SID104183305,2.09,0.85,1053,1058,inactive
CG11710 (GeneID 33044),SID104200277,1.39,3.74,5695,1177,inactive
CG11710 (GeneID 33044),SID104208300,2.33,2.4,6553,6367,inactive
CG12672 (GeneID 32781),SID104199274,7.12,4.48,6054,6499,inactive
CG12672 (GeneID 32781),SID104203119,3.79,2.28,6124,6277,inactive
exd (GeneID 32567),SID104200122,5.84,16.6,6577,6020,inactive
exd (GeneID 32567),SID104208643,3.17,11.3,6457,3015,inactive
Obp46a (GeneID 36088),SID104186012,18.9,8.2,3585,6256,inactive
Tsp42Ec (GeneID 35612),SID104185984,7.09,10.1,4092,3606,inactive
Tsp42Ec (GeneID 35612),SID104205312,2.93,8.15,6510,6209,inactive
CG17036 (GeneID 34679),SID104182356,10.6,9.35,6052,5884,inactive
CG17036 (GeneID 34679),SID104206689,9.41,0.49,6299,407,inactive
CG7194 (GeneID 38933),SID104190576,1.2,2.48,5739,6322,inactive
CG11635 + spaw,SID104185867,2.11,13.1,6259,6728,inactive
CG14764 (GeneID 35749),SID104184864,1.23,1.26,6436,6286,inactive
CG14764 (GeneID 35749),SID104186290,9.2,16.3,5850,5856,inactive
CG14764 (GeneID 35749),SID104186636,9.83,5.62,6157,997,inactive
